Measured values from several laboratories, pooled; numbers as filed in NIAID ChemDB.

Common to all: growth or infection tests; species: Mycobacterium fortuitum

A number after MIC or MFC names an inhibition level or a share of isolates. ECn is the concentration giving n% inhibition of infection, replication or growth. Blank or dashed fields: not listed here. Inhibition is in % at the dose shown (toxicity tests: loss of growth or viability). Lines come from different laboratories, so protocols vary.

structure,method,dose,endpoint,strain,result
COc1c(N2CC(C)NC(C)C2)c(F)cc2c(=O)c(C(=O)O)cn(-c3ccc(F)cc3F)c12,-,-,MIC,ATCC 6841,16 µg/mL
CC[C@@H](C)N1CCN(c2cc(=O)c3nc4c(oc3c2)c2c(=O)c3c(O)c(C)c5c(c34)=C(O)[C@@](C)(O/C=C/[C@H](OC)[C@@H](C)[C@@H](OC(C)=O)[C@H](C)[C@H](O)[C@H](C)[C@@H](O)[C@@H](C)/C=C/C=C(/C)C(=O)N2)O5)CC1,-,-,MIC50,20 strains,6.25 µg/mL
Nc1ccc(C(=O)O)c(O)c1,agar,2 µg/mL,inhibition,198 strains,<1%
C[C@H]1COc2c(N3CCN(C)CC3)c(F)cc3c(=O)c(C(=O)O)cn1c23,-,-,MIC50,48 strains,0.06 µg/mL
CN[C@@H]1[C@H](O)[C@H](NC)[C@H]2O[C@@]3(O)C(=O)C[C@@H](C)O[C@H]3O[C@@H]2[C@H]1O,-,-,MBC90,31 isolates,>64 µg/mL
CNCC1CCN(c2nc3c(cc2F)c(=O)c(C(=O)O)cn3C(C)(C)C)C1,-,-,MIC,ATCC 6841,0.06 µg/mL
CC[C@H]1OC(=O)[C@H](C)[C@@H](O[C@H]2C[C@@](C)(OC)[C@@H](O)[C@H](C)O2)[C@H](C)[C@@H](O[C@@H]2O[C@H](C)C[C@H](N(C)C)[C@H]2O)[C@](C)(O)C[C@@H](C)/C(=N\OCOCCOC)[C@H](C)[C@@H](O)[C@]1(C)O,-,-,MIC90,48 strains,>64 µg/mL
CCC(C)(C)c1ccc(C=O)cc1,-,-,EC50,-,>1000 µM
NC1CCN(c2nc3c(cc2F)c(=O)c(C(=O)O)cn3-c2ccc(F)cc2F)C1,-,-,MBC,ATCC 6841,4 µg/mL
CC1CN(c2c(F)cc3c(=O)c(C(=O)O)cn(C4CC4)c3c2C(F)(F)F)CCN1,-,-,MIC,ATCC 6841,1 µg/mL
CCC(C)(C)c1ccc(/C=N/N=C(\N)c2ccccn2)cc1,-,1000 µM,inhibition,-,6.2%
CC1CN(c2c(F)cc3c(=O)c(C(=O)O)cn(C4CC4)c3c2Cl)CCN1,-,-,MIC,ATCC 6841,0.06 µg/mL
CN[C@@H]1[C@@H](O)[C@@H](O[C@@H]2[C@@H](O)[C@H](O[C@H]3O[C@H](CN)CC[C@H]3N)[C@@H](N)C[C@H]2N)OC[C@]1(C)O,-,-,MBC90,31 isolates,>64 µg/mL
CC[C@H](C)N1CCN(c2cc(=O)c3nc4c(oc3c2)c2c(=O)c3c(O)c(C)c5c(c34)=C(O)[C@@](C)(O/C=C/[C@H](OC)[C@@H](C)[C@@H](OC(C)=O)[C@H](C)[C@H](O)[C@H](C)[C@@H](O)[C@@H](C)/C=C/C=C(/C)C(=O)N2)O5)CC1,-,-,MIC50,20 strains,25 µg/mL
CO[C@H]1/C=C/O[C@@]2(C)Oc3c(C)c(O)c4c(O)c(c(/C=N/N5CCN(C6CCCC6)CC5)c(O)c4c3C2=O)NC(=O)/C(C)=C\C=C\[C@H](C)[C@H](O)[C@@H](C)[C@@H](O)[C@@H](C)[C@H](OC(C)=O)[C@@H]1C,-,-,MIC50,48 strains,0.12 µg/mL
COc1c(N2CCNCC2)c(F)cc2c(=O)c(C(=O)O)cn(C3CC3)c12,-,-,MIC,ATCC 6841,0.06 µg/mL
C[C@H]1NCc2cc(-c3ccc4c(=O)c(C(=O)O)cn(C5CC5)c4c3OC(F)F)ccc21,-,-,MIC90,10 strains,0.25 µg/mL
N/C(=N\N=C\c1cccc2ccccc12)c1ccccn1,-,-,EC50,-,>1000 µM
CCn1cc(C(=O)O)c(=O)c2cc(F)c(N3CCC(N)C3)nc21,-,-,MIC,ATCC 6841,0.25 µg/mL

The last 2 rows once more:

structure | method | dose | endpoint | strain | result
N/C(=N\N=C\c1cccc2ccccc12)c1ccccn1 | - | - | EC50 | - | >1000 µM
CCn1cc(C(=O)O)c(=O)c2cc(F)c(N3CCC(N)C3)nc21 | - | - | MIC | ATCC 6841 | 0.25 µg/mL